Source: PubChem BioAssay AID1259414 (Drosophila RNAi Screening Center, 2018)
The screen tested about 24,000 reagents; below is an unselected part of those that have a named target and a result. In the full data, about 1,210 (5%) are marked active. 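Inactive calls also include excluded dsRNAs with several or no targets, genes unexpressed in JW18, and well A1, regardless of score.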 A plus sign joins genes that one reagent is predicted to hit.

Test: 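Host factors increasing or decreasing Wolbachia levels in cultured fly cells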 (primary screen)
Cells: Drosophila JW18 cells infected with Wolbachia
Reagent: long dsRNA against Drosophila genes, 0.25 µg dsRNA per well of a 384-well plate
Duration: 5 days
Treatment: cells persistently infected with Wolbachia before knock-down; no added drug
Detection: 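Automated imaging of bacterial rRNA staining divided by host cell count, reported as plate-normalised robust z-score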
Scale: Wolbachia per cell robust z: higher = more Wolbachia per host cell than the plate typical
Hit rule: 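Active if absolute robust z reaches 1.5 in two or more of three replicates, leaving out multi- or no-target dsRNAs, genes unexpressed in JW18 and A1 wells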

What is on record for asRNA:ASTR + Rga [DRSC12364]?
Wolbachia per cell robust z, rep 1: -0.955; Wolbachia per cell robust z, rep 2: 0.258; Wolbachia per cell robust z, rep 3: -3.74; activity call: inactive

For CG13793 [DRSC02297], how do the results read?
Wolbachia per cell robust z, rep 1: -0.221; Wolbachia per cell robust z, rep 2: 0.487; Wolbachia per cell robust z, rep 3: -4.93; activity call: inactive

What did the screen give for CG13793 [DRSC28252]?
Wolbachia per cell robust z, rep 1: 1.44; Wolbachia per cell robust z, rep 2: -0.0502; Wolbachia per cell robust z, rep 3: 0.945; activity call: inactive

What is on record for Wnt5 [DRSC20300]?
Wolbachia per cell robust z, rep 1: 0.353; Wolbachia per cell robust z, rep 2: -0.842; Wolbachia per cell robust z, rep 3: -0.194; activity call: inactive

What did the screen give for Wnt5 [DRSC28853]?
Wolbachia per cell robust z, rep 1: -1.34; Wolbachia per cell robust z, rep 2: -4.2; Wolbachia per cell robust z, rep 3: -0.204; activity call: inactive

Which result is listed for CG33941 [DRSC37786]?
Wolbachia per cell robust z, rep 1: -0.00638; Wolbachia per cell robust z, rep 2: 0.0157; Wolbachia per cell robust z, rep 3: -0.851; activity call: inactive

How did the screen score CG33941 [DRSC39124]?
Wolbachia per cell robust z, rep 1: -0.589; Wolbachia per cell robust z, rep 2: -4.81; Wolbachia per cell robust z, rep 3: -0.388; activity call: inactive

How did the screen score CG33941 [DRSC39125]?
Wolbachia per cell robust z, rep 1: -2.13; Wolbachia per cell robust z, rep 2: -0.528; Wolbachia per cell robust z, rep 3: -1.03; activity call: inactive

For CG6028 [DRSC15951], what does the deposit list?
Wolbachia per cell robust z, rep 1: -12.6; Wolbachia per cell robust z, rep 2: -1.27; Wolbachia per cell robust z, rep 3: -0.831; activity call: inactive

Which result is listed for CG14332 [DRSC14811]?
Wolbachia per cell robust z, rep 1: 0.229; Wolbachia per cell robust z, rep 2: -0.419; Wolbachia per cell robust z, rep 3: 0.491; activity call: inactive

How did the screen score CG7080 [DRSC16193]?
Wolbachia per cell robust z, rep 1: 0.0318; Wolbachia per cell robust z, rep 2: -0.386; Wolbachia per cell robust z, rep 3: 0.202; activity call: inactive

For CG7080 [DRSC27850], what was measured?
Wolbachia per cell robust z, rep 1: 0.827; Wolbachia per cell robust z, rep 2: 0.893; Wolbachia per cell robust z, rep 3: -1.63; activity call: inactive

How did the screen score morgue [DRSC00264]?
Wolbachia per cell robust z, rep 1: -1.19; Wolbachia per cell robust z, rep 2: -6.53; Wolbachia per cell robust z, rep 3: -0.848; activity call: inactive

How did the screen score RpL40 [DRSC00782]?
Wolbachia per cell robust z, rep 1: 1.62; Wolbachia per cell robust z, rep 2: 1.47; Wolbachia per cell robust z, rep 3: 2; activity call: active

For Galt [DRSC03161], what does the deposit list?
Wolbachia per cell robust z, rep 1: 0.315; Wolbachia per cell robust z, rep 2: -0.73; Wolbachia per cell robust z, rep 3: 0.544; activity call: inactive

How did the screen score CG7342 [DRSC16230]?
Wolbachia per cell robust z, rep 1: 2.05; Wolbachia per cell robust z, rep 2: 2.01; Wolbachia per cell robust z, rep 3: 0.426; activity call: active

What is on record for Prp39 [DRSC15133]?
Wolbachia per cell robust z, rep 1: 1.79; Wolbachia per cell robust z, rep 2: 0.551; Wolbachia per cell robust z, rep 3: -0.884; activity call: inactive

With Prp39 [DRSC25186], how do the results read?
Wolbachia per cell robust z, rep 1: -1.54; Wolbachia per cell robust z, rep 2: -0.718; Wolbachia per cell robust z, rep 3: -1.05; activity call: inactive

How did the screen score CG13751 [DRSC06422]?
Wolbachia per cell robust z, rep 1: -2.04; Wolbachia per cell robust z, rep 2: -1.91; Wolbachia per cell robust z, rep 3: -0.314; activity call: active

What is on record for asRNA:CR43299 + CG8119 [DRSC27407]?
Wolbachia per cell robust z, rep 1: -0.227; Wolbachia per cell robust z, rep 2: -0.385; Wolbachia per cell robust z, rep 3: -0.125; activity call: inactive

What did the screen give for CG32645 [DRSC19683]?
Wolbachia per cell robust z, rep 1: -3.82; Wolbachia per cell robust z, rep 2: -3.16; Wolbachia per cell robust z, rep 3: 0.254; activity call: inactive

What did the screen give for CG32645 [DRSC19889]?
Wolbachia per cell robust z, rep 1: 0.314; Wolbachia per cell robust z, rep 2: -0.571; Wolbachia per cell robust z, rep 3: -0.306; activity call: inactive

Which result is listed for Him [DRSC19638]?
Wolbachia per cell robust z, rep 1: -5.11; Wolbachia per cell robust z, rep 2: 0.611; Wolbachia per cell robust z, rep 3: -0.528; activity call: inactive

What did the screen give for CG32679 [DRSC17644]?
Wolbachia per cell robust z, rep 1: 0.095; Wolbachia per cell robust z, rep 2: -0.278; Wolbachia per cell robust z, rep 3: -1.5; activity call: inactive
